Taken from: PubChem BioAssay AID1259414 (Drosophila RNAi Screening Center, 2018)
The deposit covers about 24,000 reagents; shown is a random part of those that have a named target and a result. Of all reagents, about 1,210 (5%) are marked active. 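Inactive calls also include excluded dsRNAs with several or no targets, genes unexpressed in JW18, and well A1, regardless of score.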 Unmarked entries are inactive.

Aim: 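Host factors increasing or decreasing Wolbachia levels in cultured fly cells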 (primary screen)
Cells: Drosophila JW18 cells infected with Wolbachia
Knock-down reagent: long dsRNA against Drosophila genes, 0.25 µg dsRNA per well of a 384-well plate
Time to read-out: 5 days
Challenge: cells persistently infected with Wolbachia before knock-down; no added drug
Measurement: 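Imaged fluorescence in situ signal for Wolbachia 23S rRNA per DAPI-counted host cell, given as a robust z-score within each plate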
Scale: Wolbachia per cell robust z: higher = more Wolbachia per host cell than the plate typical
Call rule: 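Active if absolute robust z reaches 1.5 in two or more of three replicates, leaving out multi- or no-target dsRNAs, genes unexpressed in JW18 and A1 wells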

The first 3 records as a preview:
CG16790 [DRSC15156] — Wolbachia per cell robust z, rep 1: 0.167; Wolbachia per cell robust z, rep 2: -0.0109; Wolbachia per cell robust z, rep 3: 0.536
mtd [DRSC12131] — Wolbachia per cell robust z, rep 1: 0.512; Wolbachia per cell robust z, rep 2: -0.0803; Wolbachia per cell robust z, rep 3: 0.821
mtd [DRSC12380] — Wolbachia per cell robust z, rep 1: -0.0124; Wolbachia per cell robust z, rep 2: 1.31; Wolbachia per cell robust z, rep 3: -4

The listing, repeating the preview:
CG16790 [DRSC15156] — Wolbachia per cell robust z, rep 1: 0.167; Wolbachia per cell robust z, rep 2: -0.0109; Wolbachia per cell robust z, rep 3: 0.536
mtd [DRSC12131] — Wolbachia per cell robust z, rep 1: 0.512; Wolbachia per cell robust z, rep 2: -0.0803; Wolbachia per cell robust z, rep 3: 0.821
mtd [DRSC12380] — Wolbachia per cell robust z, rep 1: -0.0124; Wolbachia per cell robust z, rep 2: 1.31; Wolbachia per cell robust z, rep 3: -4
mtd [DRSC12381] — Wolbachia per cell robust z, rep 1: 0.316; Wolbachia per cell robust z, rep 2: -1.19; Wolbachia per cell robust z, rep 3: 0.634
mtd [DRSC29132] — Wolbachia per cell robust z, rep 1: -1.12; Wolbachia per cell robust z, rep 2: 0.549; Wolbachia per cell robust z, rep 3: -1.08
mtd [DRSC40793] — Wolbachia per cell robust z, rep 1: 0.723; Wolbachia per cell robust z, rep 2: 0.472; Wolbachia per cell robust z, rep 3: -1.68
CG14259 [DRSC14754] — Wolbachia per cell robust z, rep 1: -0.672; Wolbachia per cell robust z, rep 2: 0.692; Wolbachia per cell robust z, rep 3: 0.516
CG11635 [DRSC06075] — Wolbachia per cell robust z, rep 1: -0.162; Wolbachia per cell robust z, rep 2: 0.63; Wolbachia per cell robust z, rep 3: 0.681
CG11635 [DRSC41304] — Wolbachia per cell robust z, rep 1: 0.146; Wolbachia per cell robust z, rep 2: -2.37; Wolbachia per cell robust z, rep 3: 0.56
S-Lap5 [DRSC06732] — Wolbachia per cell robust z, rep 1: -2.46; Wolbachia per cell robust z, rep 2: -0.306; Wolbachia per cell robust z, rep 3: 0.89
S-Lap5 [DRSC24405] — Wolbachia per cell robust z, rep 1: -0.698; Wolbachia per cell robust z, rep 2: 0.389; Wolbachia per cell robust z, rep 3: -0.00392
CG2901 [DRSC18239] — Wolbachia per cell robust z, rep 1: -0.741; Wolbachia per cell robust z, rep 2: -2.69; Wolbachia per cell robust z, rep 3: -1.88
CG7276 [DRSC10797] — Wolbachia per cell robust z, rep 1: -0.651; Wolbachia per cell robust z, rep 2: 0.0831; Wolbachia per cell robust z, rep 3: -1.29
crm [DRSC18754] — Wolbachia per cell robust z, rep 1: 0.163; Wolbachia per cell robust z, rep 2: -0.433; Wolbachia per cell robust z, rep 3: -1.66
crm [DRSC26508] — Wolbachia per cell robust z, rep 1: -0.0611; Wolbachia per cell robust z, rep 2: 0.124; Wolbachia per cell robust z, rep 3: -0.00605
crm [DRSC39136] — Wolbachia per cell robust z, rep 1: 0.649; Wolbachia per cell robust z, rep 2: -3.35; Wolbachia per cell robust z, rep 3: -0.0096
Larp4B [DRSC23201] — Wolbachia per cell robust z, rep 1: 0.124; Wolbachia per cell robust z, rep 2: 1.17; Wolbachia per cell robust z, rep 3: -0.38
Larp4B [DRSC29411] — Wolbachia per cell robust z, rep 1: -0.33; Wolbachia per cell robust z, rep 2: 0.164; Wolbachia per cell robust z, rep 3: 1.13
Trmt112 [DRSC11685] — Wolbachia per cell robust z, rep 1: 1.03; Wolbachia per cell robust z, rep 2: 0.302; Wolbachia per cell robust z, rep 3: -1.07
Bulli [DRSC10974] — Wolbachia per cell robust z, rep 1: 0.41; Wolbachia per cell robust z, rep 2: 0.825; Wolbachia per cell robust z, rep 3: -2.55
pot [DRSC19850] — Wolbachia per cell robust z, rep 1: -4.26; Wolbachia per cell robust z, rep 2: 0.812; Wolbachia per cell robust z, rep 3: -3.18
pot [DRSC26969] — Wolbachia per cell robust z, rep 1: -1.02; Wolbachia per cell robust z, rep 2: -0.239; Wolbachia per cell robust z, rep 3: 1.7
dpp [DRSC00118] — Wolbachia per cell robust z, rep 1: -0.931; Wolbachia per cell robust z, rep 2: 0.412; Wolbachia per cell robust z, rep 3: 0.604
dpp [DRSC00121] — Wolbachia per cell robust z, rep 1: -0.552; Wolbachia per cell robust z, rep 2: 0.68; Wolbachia per cell robust z, rep 3: -0.133
dpp [DRSC00813] — Wolbachia per cell robust z, rep 1: 0.665; Wolbachia per cell robust z, rep 2: -0.119; Wolbachia per cell robust z, rep 3: 0.678
dpp [DRSC26853] — Wolbachia per cell robust z, rep 1: -0.745; Wolbachia per cell robust z, rep 2: -1.47; Wolbachia per cell robust z, rep 3: -0.428
